## Single amino acid changes in Zika NS2B-NS3 and viral growth

Data from the supplement of Ni et al. 2025, doi:10.1038/s41467-025-63602-z.

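Mutant virus pools were grown in human Huh-7.5 cells. The effect is the change in frequency of a mutant, normalised to wild type, as a mean of three replicate libraries (two for positions 207-308). The study looked for pockets that tolerate few changes, as a guide for inhibitor design.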

Protein: NS2B and the protease part of NS3 of Zika virus strain MR766. Positions count along the chain below; NS2B spans 2-131 and NS3 starts at 132.
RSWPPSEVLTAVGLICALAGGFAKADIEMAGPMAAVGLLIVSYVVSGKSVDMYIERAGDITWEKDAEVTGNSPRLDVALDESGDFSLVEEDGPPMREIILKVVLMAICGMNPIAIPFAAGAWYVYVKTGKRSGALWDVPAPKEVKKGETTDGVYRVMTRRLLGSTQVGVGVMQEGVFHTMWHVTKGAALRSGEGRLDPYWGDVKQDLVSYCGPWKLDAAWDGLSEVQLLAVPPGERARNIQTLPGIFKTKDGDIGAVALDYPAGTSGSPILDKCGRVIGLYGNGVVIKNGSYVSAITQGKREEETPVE

Values are log2 effects on growth: 0 is wild type, lower means poorer growth.
A change reads original residue, position, new residue.
This list holds changes to asparagine only.
Values above 0 are not proof of better growth: six high scorers were tested one by one, five grew less well than wild type and one about as well.
Position 1 still belongs to NS2A. In the paper, -1 or higher counts as tolerated.
The region was split into three libraries (1-103, 104-206, 207-308).

- K130N = -6.79
- R131N = -6.21
- S132N = -5.97
- G133N = -5.24
- A134N = -4.94
- L135N = -6.95
- W136N = -6.65
- D137N = -6.72
- V138N = -4.18
- P139N = -5.10
- A140N = -4.94
- P141N = -4.64
- K142N = -4.35
- E143N = -1.52
- V144N = -1.77
- K145N = -1.64
- K146N = -2.67
- G147N = -5.22
- E148N = -1.95
- T149N = -3.95
- T150N = -1.44
- D151N = -1.44
- G152N = -5.52
- V153N = -4.96
- Y154N = -4.79
- R155N = -5.69
- V156N = -5.20
- M157N = -4.87
- T158N = -0.55
- R159N = -4.51
- R160N = -3.76
- L161N = -4.59
- L162N = -5.29
- G163N = -4.78
- S164N = -0.10
- T165N = -0.49
- Q166N = -5.33
- V167N = -5.13
- G168N = -4.83
- V169N = -5.14
- G170N = -5.36
- V171N = -4.91
- M172N = -5.65
- Q173N = -2.41
- E174N = -5.37
- G175N = -0.07
- V176N = -3.42
- F177N = -5.12
- H178N = -2.46

The last 5 entries again:

substitution	log2 growth effect
E174N	-5.37
G175N	-0.07
V176N	-3.42
F177N	-5.12
H178N	-2.46